In publication PMC12120630, “Nicotianin-I: A Tobacco Floral Nectar Peptide with Anticandidal Activity” (ACS Omega, 2025):
Read-outs that look alike come from different tables or passages of the source. Residues, ends and D or L forms follow the SMILES beside them.

System: zebrafish embryos / Candida

Structure (SMILES) | therapeutic index (zebrafish LC50 / MIC for C. albicans) | therapeutic index (zebrafish LC50 / MIC for C. parapsilosis) | therapeutic index (from literature LC50 (zebrafish embryos) and MIC (C. albicans and C. parapsilosis))
CC(C)C[C@H](NC(=O)[C@H](CS)NC(=O)[C@H](Cc1ccc(O)cc1)NC(=O)CNC(=O)[C@H](Cc1c[nH]cn1)NC(=O)[C@H](CCCNC(=N)N)NC(=O)[C@@H](NC(=O)[C@H](CS)NC(=O)[C@H](CO)NC(=O)[C@H](Cc1ccc(O)cc1)NC(=O)[C@H](Cc1c[nH]cn1)NC(=O)[C@@H](N)CCCCN)[C@@H](C)O)C(=O)N[C@@H](C)C(=O)N[C@@H](CS)C(=O)N[C@@H](Cc1ccc(O)cc1)C(=O)N[C@@H](CCCCN)C(=O)N[C@@H](CCCNC(=N)N)C(=O)N[C@@H](Cc1c[nH]c2ccccc12)C(=O)N[C@@H](Cc1ccccc1)C(=O)O [nicotianin-I] (H-KHYSCTRHGYCLACYKRWF-OH) | 0.45 | 0.38 | 
C[C@@H]1[C@H](O)[C@@H](C)/C=C/C=C/CC/C=C/C=C/C=C/C=C/C(O[C@H]2O[C@H](C)[C@@H](O)[C@H](N)[C@@H]2O)CC2O[C@](O)(CC(O)C(O)CCC(O)CC(O)CC(O)CC(=O)O[C@H]1C)CC(O)C2C(=O)O (stereo partly drawn) [nystatin] |  |  | 6.2
